## Percent effect of library compounds

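Growth of Mycobacterium tuberculosis over 4 days (cholesterol / DPPC medium with tyloxapol); the read-out is not stated. Tested at 50 µM. Higher reads as more growth inhibition (inferred: compounds with an IC50 in retests scored well above the rest). About 69,000 compounds were tested under these conditions; 0.54% (about 370) showed 50% or more at least once.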

Each number is a percent effect as filed. How 0% and 100% were set is not recorded. Most values in the screen are low, and negative values occur. Many other results are left out here, so strong results are more common than in the screen. Two or more numbers in one place are separate tests of the same structure; such repeats can differ widely.

| SMILES | Percent Effect |
|---|---|
| `COc1ccc2cccc(CC(=O)NCc3nccc(N)n3)c2c1` | -5.319% |
| `Fc1ccc(Cn2ncc3c2CN(c2noc(C4CC4)n2)C3)cc1` | 59.35% & 22.95% |
| `O=C(NCCc1cccc(Cl)c1)C1CCOCC1` | 4.114% |
| `c1cnc(-c2nc(C3CCOC3)no2)cn1` (stereo not shown) | 35.25% & 80.94% |
| `O=C(c1ccc(NCc2cccc(F)c2)cc1)N1CCC(CO)CC1` | -5.397% |
| `c1cc2c(cc1CSCc1noc(C3CC3)n1)OCCO2` | 18.03% & 31.01% |
| `Cc1ccc(N2Cc3cnn(Cc4ccc(F)cc4)c3C2)nn1` | 13.52% & 16.91% |
| `COc1cccc(OC)c1OCCn1c(C)c(C)oc1=O` | -3.936% |
| `Cc1ccc(C(=O)N2CCCN(C)c3ccc(F)cc32)o1` | -5.557% |
| `CC(C)c1nnc2n1CCN(C(=O)c1ccc(S(C)(=O)=O)cc1)C2` | 6.637% |
| `CC(Nc1ccc(Br)cc1)c1nc(C2CC2)no1` (stereo not shown) | 67.79% |
| `Fc1ccc(CN2CCCC(c3nnc(-c4cnccn4)o3)C2)cc1F` (stereo not shown) | 18.82% |
| `CCN(C)S(=O)(=O)NCC1(c2cccc(Br)c2)CC1` | -3.168% |
| `Cc1nccn1CCCNc1ccc(Cl)c(C#N)n1` | 5.843% |
| `Cc1ccc(C(C)N(C)CCS(=O)(=O)CCC(N)=O)cc1` (stereo not shown) | 0.6981% |
| `CC(c1nc(C2CC2)no1)N1CCN(CCN2CCCC2=O)CC1` (stereo not shown) | -6.064% |
| `Cc1cncc(NCc2ccccc2N2CCOCC2)c1` | 53.3% |
| `CC(C)c1ccc(C(CN)N2CCc3sccc3C2)cc1` (stereo not shown) | 76.08% |
| `c1ccc(NCc2ccc(Cn3ccnc3)cc2)nc1` | 12.78% |
| `c1ccc2nc(N3CCOC(Cn4cccn4)C3)cnc2c1` (stereo not shown) | -2.129% |
| `CC(C)N1CCCC2(CCN(Cc3noc(C4CCCC4)n3)C2)C1=O` (stereo not shown) | -24.68% & 6.678% |
| `Cc1ccc(Oc2cc(F)ccc2O[C@@H]2CCC[C@@H](N)[C@H]2O)cc1` | 34.54% |
| `C=C/C=c1\c(=C/C)oc2c(NCc3ccccc3)ncnc12` | 38.56% |
| `C=Cc1ccc(CN2C(=O)C3(CCNCC3)Nc3ccccc32)cc1` | 54.02% |
| `Fc1cccnc1N1CCC2(CNCCC2(F)F)C1` (stereo not shown) | -37.39% |
| `CSc1nnc(CNC(=O)Nc2ccccc2Br)n1C` | 1.159% & 7.174% |
| `CCOc1cccc(CNc2cncc(-n3cccn3)n2)c1` | 26.38% |
| `CC(CNC(=O)N1CCN(c2ncccn2)CC1)Cc1cccs1` (stereo not shown) | -10.04% |
| `CNc1cc(C)nc(N2C[C@H](C3CC3)[C@@H](N)C2)n1` | 5.037% |
| `Cc1csc(C2CCCCN2C(=O)COCc2nc(C)no2)n1` (stereo not shown) | -4.685% |
| `OC(COCc1cccs1)Cn1cc(Br)cn1` (stereo not shown) | 0.2778% |
| `CC(C)CC(C(=O)N(C)Cc1ncnn1C)N1CCCCC1=O` (stereo not shown) | 70.25% |
| `COC1CCCN(c2nc(C)nc3c2CCN(Cc2ccco2)CC3)C1` (stereo not shown) | -7.134% |
| `CN(CC(C)(C)C)S(=O)(=O)c1ccc(C(F)(F)F)nc1` | 27.94% |
| `c1coc(-c2nc3c(c(NCc4n[nH]c5c4CCC5)n2)CCNCC3)c1` | -1.229% |
| `Cc1ccc(-c2noc(CN3CC(n4cc(C)cn4)C3)n2)cc1` | 57.51% |
| `COCc1ccc(CNc2cncc(-n3cccn3)n2)cc1` | 20.88% |
| `CCc1nccn1C1CCCN(C(=O)c2ccc3[nH]nnc3c2)C1` (stereo not shown) | 14.38% |
| `O=C(CN1CCCC(c2ccn[nH]2)C1)Nc1nc2c(s1)CCC2` (stereo not shown) | 17.91% |
| `NCC(c1ccc(Cl)cc1)N1CCc2sccc2C1` (stereo not shown) | 47.68% |
| `CN1CCN(C(=O)Cc2ccc(S(=O)(=O)C(F)F)cc2)CC1` | 11.49% |
| `Cc1ccc(C(=O)N2CCOCC2C(N)=O)c(F)c1` (stereo not shown) | 7.734% |
| `COC1(CNC(=O)c2cccc(C#N)c2)CCSC1` (stereo not shown) | 97.17% |
| `COCCN1CCN(CCS(=O)(=O)c2cccc(OC)c2)CC1` | 7.449% |
| `CCNc1ncc(C(=O)N2CCOC(CCCC(C)C)C2)cn1` (stereo not shown) | 58.46% & 59.8% |
| `COc1ccc(CN2CCCC(Nc3cccc(F)c3)C2)cc1O` (stereo not shown) | 55.05% |
| `CCN(C)C(=O)C1(c2ccc(F)cc2F)CCC1` | -16.21% |
| `Cc1cccc(-c2noc(CN3CC(n4cc(C)cn4)C3)n2)c1` | 17.6% |
| `CCc1nc(CN(C)CC(N)=O)cs1` | 2.248% |
| `O=S(=O)(c1ccccc1N1CC(n2cccn2)C1)C(F)(F)F` | 11.59% |
| `CN(C)c1cc2c(nn1)CCN(C(=O)c1cc3ccccc3o1)C2` | -6.707% |
| `c1coc(CNc2nnc(Cc3ccsc3)o2)c1` | 37.08% |
| `CC(C)(C)NC(=O)c1ccccc1NC(=O)c1ccncc1` | -5.212% |
| `OC1CCN(C2CCN(c3ccc(Cn4ccnc4)cn3)CC2)CC1` | 1.882% |
| `O=C(O)c1cc(S(=O)(=O)Nc2cc(Cl)ccc2F)cc2c1OCCO2` | -28.54% |
| `CCN1CC2(CC1=O)CN(Cc1cnn(C)c1)CCN(C(C)=O)C2.O=C(O)C(F)(F)F` (stereo not shown) | -7.205% & 15.21% |
| `CS(=O)(=O)c1ccc(Cl)c(C(=O)NCCC2=CCCCC2)c1` | 1.149% |
| `CSc1nnc(CNC(=O)Nc2ccccc2F)n1C` | -9.002% & -9.887% |
| `Cc1nc(C2CCCN2Cc2cc(Cl)c3c(c2)OCCCO3)no1` (stereo not shown) | 45.56% |
| `O=C(O)C(F)(F)F.O=C(O)C(F)(F)F.[H][C@@]12COC[C@@H](C(=O)Nc3cccnc3)[C@]1([H])CN(C1CCCC1)C2` | -5.594% |
| `Cc1ccc(C(=O)N2CCCN(Cc3cscn3)CC2)o1` | 3.492% |
| `Cc1nc(C)c(C(=O)N2CCc3c(C)cccc32)o1` | 12.81% |
| `CO[C@H]1CCN(c2nnc(C)s2)C[C@@H]1Cc1ccccc1.O=C(O)C(F)(F)F` | 38.17% |
| `CN(Cc1ccco1)C(=O)c1cccc(N2CCCC2=O)c1` | -7.688% |
| `CCSc1nnc([C@@H](N)CC(C)C)o1.Cl` | 7.466% |
| `Cc1nnc(CN2CCC(Oc3ccc(F)cc3)CC2)o1` | -11.19% |
| `COC(=O)CSCc1nc(-c2ccc(Cl)cc2)no1` | -4.731% |
| `NC(=O)C1=NC2=NS(=O)(=O)c3ccccc3N2N1Cc1ccc(Br)cc1` | 38.82% |
| `Cc1nc(CN(C)C)cc(N2CCCC(COc3ccc(F)cc3)C2)n1` (stereo not shown) | 10.96% |

The first 7 entries again:

SMILES	Percent Effect
COc1ccc2cccc(CC(=O)NCc3nccc(N)n3)c2c1	-5.319%
Fc1ccc(Cn2ncc3c2CN(c2noc(C4CC4)n2)C3)cc1	59.35% & 22.95%
O=C(NCCc1cccc(Cl)c1)C1CCOCC1	4.114%
c1cnc(-c2nc(C3CCOC3)no2)cn1 (stereo not shown)	35.25% & 80.94%
O=C(c1ccc(NCc2cccc(F)c2)cc1)N1CCC(CO)CC1	-5.397%
c1cc2c(cc1CSCc1noc(C3CC3)n1)OCCO2	18.03% & 31.01%
Cc1ccc(N2Cc3cnn(Cc4ccc(F)cc4)c3C2)nn1	13.52% & 16.91%

Source: ChEMBL document CHEMBL3988442, “University of Dundee, Small-Polar-MMV Screening Library” (2021).